Human monoclonal antibodies against the spike receptor-binding domain (heavy:light variable regions). IC50 against pseudoviruses bearing the spike of naturally observed variants; lower = stronger; >10 µg/ml means not reached at the top dose. No active / inactive call. The stated detection limit is 0.0005 µg/ml; values near or below 0.001 µg/ml lie at the floor of the assay.
How the values were obtained:
Assay in all cases: pseudovirus neutralization IC50; higher = weaker neutralization
[1] = molecular target: SARS-CoV-2 Omicron BA.1 spike pseudovirus
Protocol: (§1)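 Single-round VSV luciferase pseudovirus mixed with antibody dilutions for 1 h and put on Huh-7 cells for about a day; IC50 from the dose curve.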

[2] = molecular target: SARS-CoV-2 Omicron BA.2 spike pseudovirus
Protocol: as §1

[3] = molecular target: SARS-CoV-2 Omicron BA.2.75 spike pseudovirus
Protocol: as §1

[4] = molecular target: SARS-CoV-2 Omicron BA.5 spike pseudovirus
Protocol: as §1

[5] = molecular target: SARS-CoV-2 Omicron BQ.1.1 spike pseudovirus
Protocol: as §1

[6] = molecular target: SARS-CoV-2 Omicron XBB spike pseudovirus
Protocol: as §1

[7] = molecular target: SARS-CoV-2 early D614G spike pseudovirus
Protocol: as §1

B1: BD56-1427 (protein)
chain 1: QVQLVESGGGVVQPGRSLRLSCAASGFTFSIYGMHWVRQAPGKGLEWVAVISHDGSNKYYTDSVRGRFTISRDNSKNTLYLQMNSLRVEDTAVYYCAKGSGYCSGGRCYPEGYFDYWAQGTLVTVSS
chain 2: SYVLTQPPSVSVAPGKTARITCGGNDIGSKNVHWYQQKPGQAPVLVVYDDSDRPSGIPERFSGSNSGNTATLIISRVEAGDEADYYCQVWDSSSNLYWVFGGGTKLTVL
pseudovirus neutralization IC50 [1]: > 10 µg/mL
pseudovirus neutralization IC50 [2]: > 10 µg/mL
pseudovirus neutralization IC50 [3]: > 10 µg/mL
pseudovirus neutralization IC50 [4]: > 10 µg/mL
pseudovirus neutralization IC50 [5]: > 10 µg/mL
pseudovirus neutralization IC50 [6]: > 10 µg/mL
pseudovirus neutralization IC50 [7]: > 10 µg/mL

B2: BD56-1430 (protein)
chain 1: EVQLVESGGGLVQPGGSLRLSCAASGLIVSSNYMSWVRQAPEKGLEWVSEIYAGGSTFHSGSVKGRFIISRDNSKNTVYLQMNSLRAEDSAVYYCVRDLKHDGMDVWGQGTTVTVSS
chain 2: DIQLTQSPSFLSASVGDRVTITCRATQGIGNSLAWYQQKPGKAPNLLIYAASSLQSGVPSRFSGSASGTEFTLTISSLQPEDFATYYCQQLNGYPSMCTFGQGTKLEIK
pseudovirus neutralization IC50 [1]: 0.00609 µg/mL
pseudovirus neutralization IC50 [2]: 0.00728 µg/mL
pseudovirus neutralization IC50 [3]: > 10 µg/mL
pseudovirus neutralization IC50 [4]: 0.631 µg/mL
pseudovirus neutralization IC50 [5]: > 10 µg/mL
pseudovirus neutralization IC50 [6]: > 10 µg/mL
pseudovirus neutralization IC50 [7]: 0.0247 µg/mL

B3: BD56-1414 (protein)
chain 1: EVQLVESGGGLVQPGRSLRLSCAASGFTFDDYAMHWVRQAPGKGLEWVSGISWNGGSRGYADSVKGRFTISRDNAKNSLYLQMNSLRVEDTAFYYCTKDDVRDYYGSDNWNWFDPWGQGTLVTVSS
chain 2: DIQMTQSPSSLSASVGDRVTITCRASQSISSYLNWYQQRPGKAPRLLIYAGISLQNGVPSRFSGSGSGTDFTLTISSLQPEDFATYYCQQNYRTPYTFGQGTKLEIK
pseudovirus neutralization IC50 [1]: > 10 µg/mL
pseudovirus neutralization IC50 [2]: > 10 µg/mL
pseudovirus neutralization IC50 [3]: > 10 µg/mL
pseudovirus neutralization IC50 [4]: > 10 µg/mL
pseudovirus neutralization IC50 [5]: > 10 µg/mL
pseudovirus neutralization IC50 [6]: > 10 µg/mL
pseudovirus neutralization IC50 [7]: > 10 µg/mL

B4: BD56-1431 (protein)
chain 1: QVHLVESGGGVVQPGRSLRLSCAASGFIFRDYGMHWVRQAPGKGLEWVAVIWYDGTNKYYADSVKGRFTISRDNSKNTLYLQIDSLRAEDTAVYYCARDYGVGATMDDYFDYWGQGTLVIVSS
chain 2: QSVLTQPPSASGAPGQRVSISCSGSNSNIGTNHIYWYQQLPGTAPKLLIYRNNQRPSGVPDRFSGSKSGTSASLAISGLRSEDEADYYCAGWDDRLGGWVFGGGTKVTVL
pseudovirus neutralization IC50 [1]: 0.912 µg/mL
pseudovirus neutralization IC50 [2]: 1.22 µg/mL
pseudovirus neutralization IC50 [3]: 1.48 µg/mL
pseudovirus neutralization IC50 [4]: 1.31 µg/mL
pseudovirus neutralization IC50 [5]: 2.12 µg/mL
pseudovirus neutralization IC50 [6]: 2.04 µg/mL
pseudovirus neutralization IC50 [7]: 0.643 µg/mL

B5: COV2-2413 (protein)
chain 1: QVQLVQSGAEVKKPGASVKVSCKASGYTFTSYDINWVRQATGQGLEWMGWMNPNSGNAGYGQKFQGRVTMTRNTSISTAYMELSSLRSEDTAVYYCARMRSGWPTHGRPDDYWGRGTLVTVSS
chain 2: QSVLTQPPSASGTPGQRVTFSCSGSNSNIGSYTVNWYQQLPGTAPKLLIYDNNQRPSGVPDRFSGSKSGTSASLAISGLQSEDEADYYCAVWDDSLNGLVFGGGTKLTVL
pseudovirus neutralization IC50 [1]: > 10 µg/mL
pseudovirus neutralization IC50 [2]: > 10 µg/mL
pseudovirus neutralization IC50 [3]: > 10 µg/mL
pseudovirus neutralization IC50 [4]: > 10 µg/mL
pseudovirus neutralization IC50 [5]: > 10 µg/mL
pseudovirus neutralization IC50 [6]: > 10 µg/mL
pseudovirus neutralization IC50 [7]: > 10 µg/mL

B6: BD56-1435 (protein)
chain 1: EVQLVESGGGLVKPGGSLRLSCAASGFSFNDAWMSWVRQAPGKGLEWVGRIKSKIDGGTTDYAAPVKDRFTISTDDSKNTLYLQMNSLKTEDTAMYYCTTGVDIVVRVYVDDAFDIWGQGTMVTVSS
chain 2: SSELTQDPAVSVALGQTVRITCQGDSLRSYYASWYQQKPRQAPVLVIYGENNRPSGIPDRFSGSSSGNTASLTITGAQAEDEADYYCNSRDSSGNHVVFGGGTKLTVL
pseudovirus neutralization IC50 [1]: > 10 µg/mL
pseudovirus neutralization IC50 [2]: > 10 µg/mL
pseudovirus neutralization IC50 [3]: > 10 µg/mL
pseudovirus neutralization IC50 [4]: > 10 µg/mL
pseudovirus neutralization IC50 [5]: > 10 µg/mL
pseudovirus neutralization IC50 [6]: > 10 µg/mL
pseudovirus neutralization IC50 [7]: > 10 µg/mL

B7: BD56-1433 (protein)
chain 1: EVQLVESGGGLVQPGGSLRLSCAASGFIFSSDDMHWVRQAPGKGLEWVSGIGTAGDTYYSDSVKGRFTISREDAKNSLYLQMNSLRAGDTAVYYCARGSDSGLHYYFDNWGQGTLVTVSS
chain 2: DVQMTQSPSSLSASIGDRVTITCRASQTITTYLNWYQQKAGKAPKLLIYAASSLQSGVPSRFSGSGSGTDFTLTISSLQPADFATYYCQQSYSAPPWTFGQGTKVEIK
pseudovirus neutralization IC50 [1]: > 10 µg/mL
pseudovirus neutralization IC50 [2]: > 10 µg/mL
pseudovirus neutralization IC50 [3]: > 10 µg/mL
pseudovirus neutralization IC50 [4]: > 10 µg/mL
pseudovirus neutralization IC50 [5]: > 10 µg/mL
pseudovirus neutralization IC50 [6]: > 10 µg/mL
pseudovirus neutralization IC50 [7]: > 10 µg/mL

B8: BD56-1424 (protein)
chain 1: QLQLQESGPGLVKPSETLSLTCTVSGGSISSSRYYWGWIRQPPGKGLEWVGNFYYSGSTYYNPSLKSRVTISVDTSKNQFSLKVSSVTAADTAVYYCTRDAHGDFSWDYWGQGTLVTVSS
chain 2: QSVLTQSPSVSGAPGQRVNISCTGSSSNIGAGYDVHWYQQLPGAAPKLLIYGNSNRPSGVPDRFSGSKSGTSASLAITGLQAEDEADYFCQTYDTSLSGSGYVFGTGTKVTVL
pseudovirus neutralization IC50 [1]: > 10 µg/mL
pseudovirus neutralization IC50 [2]: > 10 µg/mL
pseudovirus neutralization IC50 [3]: > 10 µg/mL
pseudovirus neutralization IC50 [4]: > 10 µg/mL
pseudovirus neutralization IC50 [5]: > 10 µg/mL
pseudovirus neutralization IC50 [6]: > 10 µg/mL
pseudovirus neutralization IC50 [7]: > 10 µg/mL

B9: BD56-1418 (protein)
chain 1: QVQLVESGGGVVQSGRSLRLSCAASGFTFRNHGMHWVRQAPGKGLEWVAVIWNDGTNKYYAHSVKGRFTISRDNSKNTMYMEMNSLRAEDTAVYYCARDYGVGATMDDYFDYWGRGTLVTVSS
chain 2: QSVLTQPPSASGTPGQRVTISCSGSSSNIGDNYVYWYQHLPGTAPKLLIYRNNQRPSGVPDRFSGSKSGTSASLAISGLRSDDEADYHCAAWDDSLSGWAFGGGTKLTVL
pseudovirus neutralization IC50 [1]: 0.468 µg/mL
pseudovirus neutralization IC50 [2]: 0.399 µg/mL
pseudovirus neutralization IC50 [3]: 0.258 µg/mL
pseudovirus neutralization IC50 [4]: 0.167 µg/mL
pseudovirus neutralization IC50 [5]: 2.03 µg/mL
pseudovirus neutralization IC50 [6]: 2.06 µg/mL
pseudovirus neutralization IC50 [7]: 0.551 µg/mL

B10: BD56-1434 (protein)
chain 1: QVQLVQSGAEVKKPGSSVKVSCKASGGTFSSYTISWVRQAPGQGLEWIGKIIPILGIADYAEQVQGRITITADTSTGTAYMDLSSLRSEDTAFYYCARERGYSDYGSAIYFDYWGQGTLVTVSS
chain 2: QSVLTQPPSVSGAPGQRVTISCTGTSSNIGAGYDVHWYQQVPGTAPKLLIYGNTNRPSGVPDRFSGSKSGTSASLAITGLQAEDEADYYCQSYDSSLSGSGVFGGGTKLTVL
pseudovirus neutralization IC50 [1]: 0.0172 µg/mL
pseudovirus neutralization IC50 [2]: 0.0163 µg/mL
pseudovirus neutralization IC50 [3]: 0.0191 µg/mL
pseudovirus neutralization IC50 [4]: 0.557 µg/mL
pseudovirus neutralization IC50 [5]: 2.57 µg/mL
pseudovirus neutralization IC50 [6]: 2.25 µg/mL
pseudovirus neutralization IC50 [7]: 0.214 µg/mL

B11: BD56-1419 (protein)
chain 1: QVQLQESGPGLVKPSETLSLTCAVSGDSVHSGRYYWSWIRQSPGKGLEWIGYIYYSGSSHYNPSLKSRVSISMDTSKNQFSLELRSVTAADTAVYYCARGFVVVVTSTPWFDPWGQGTLVTVSS
chain 2: QSVLTQPPSVSGAPGQRVTFSCTGSRSNIGAGYGAHWYQQLPGRAPKLLIYGNSSRPSGVPDRFSGSKSGTSASLAITGLQAEDEADYFCQSYDSRLSAWVFGGGTKLTVL
pseudovirus neutralization IC50 [1]: > 10 µg/mL
pseudovirus neutralization IC50 [2]: > 10 µg/mL
pseudovirus neutralization IC50 [3]: > 10 µg/mL
pseudovirus neutralization IC50 [4]: > 10 µg/mL
pseudovirus neutralization IC50 [5]: > 10 µg/mL
pseudovirus neutralization IC50 [6]: > 10 µg/mL
pseudovirus neutralization IC50 [7]: > 10 µg/mL

B12: BD56-1421 (protein)
chain 1: QVQLVESGGGVVQPGRSLRLSCAASGFTFRNYGMHWVRQAPGKGLEWVAVIWNDGTNKYYGDSVKGRFTISRDNSKNTLYLQMNTLRAEDTAVYYCARDYGVGATLEDYFDYWGPGTLVTVSS
chain 2: QSVLTQPPSASGTPGQRVTISCSGSSSNIGINFVYWYYHFPGTAPKLLIYKNNQRPSGVPDRFSGAKSGTSASLAIGGLRSEDEADYYCAAWDDSLGGWVFGGGTKLTVL
pseudovirus neutralization IC50 [1]: > 10 µg/mL
pseudovirus neutralization IC50 [2]: > 10 µg/mL
pseudovirus neutralization IC50 [3]: > 10 µg/mL
pseudovirus neutralization IC50 [4]: > 10 µg/mL
pseudovirus neutralization IC50 [5]: > 10 µg/mL
pseudovirus neutralization IC50 [6]: > 10 µg/mL
pseudovirus neutralization IC50 [7]: > 10 µg/mL
